Pooled drug test results. Numbers come from NIAID ChemDB, via PubChem.

All rows: tests in culture; organism: Staphylococcus aureus

A number after MIC or MFC names an inhibition level or a share of isolates. Neighbouring rows are from separate reports.

structure,endpoint,strain,value
C=C1COC2[C@@H](C)C(=NC(C)=O)[C@H](C)C[C@@](C)(OC1)[C@H](O[C@@H]1O[C@H](C)C[C@H](N(C)C)[C@H]1O)[C@@H](C)C(=O)[C@@H](C)C(=O)O[C@H](CC)[C@@]2(C)O,MIC,33591 (erythromycin methicillin-resistant),>64 µg/mL
CCCCCCCCCCCC[N+](C)(C)COCCC,MIC,ATCC 6538,1.55 µM
N#Cc1ccc(N2CCN(c3ccc(N4C[C@H](COc5cnccn5)OC4=O)cc3F)CC2)nn1,MIC,004 (methicillin quinolone-resistant),1 µg/mL
NCCCCCCNc1cc2c(cc1F)c(=O)c(C(=O)O)cn2C1CC1,MIC,ATCC 5278 (methicillin-resistant),>100 µg/mL
CCNc1c(F)cc2c(=O)c(C(=O)O)cn(-c3cc(N)c(F)cc3F)c2c1C,MIC,MR8736 (methicillin-resistant),0.5 µg/mL
CCCCCCCCCCCC[N+](C)(C)COCCCCCCCC,MIC,ATCC33592,0.77 µM
CNC(=O)N[C@H]1CCN(c2ccc(N3C[C@H](CNc4ccon4)OC3=O)cc2F)C1,MIC,004 (methicillin quinolone-resistant),0.5 µg/mL
CC[C@H]1OC(=O)[C@H](C)C(=O)[C@H](C)[C@@H](O[C@@H]2O[C@H](C)C[C@H](N(C)C)[C@H]2O)[C@@]2(C)C[C@@H](C)C(=NC(C)=O)[C@H](C)C(OC/C(=N\OCC#Cc3cccc(N)n3)CO2)[C@]1(C)O,MIC,25923 (erythromycin-susceptible),0.13 µg/mL
NCCOc1cc2c(cc1F)c(=O)c(C(=O)O)cn2-c1ccc(F)cc1F,MIC,ATCC 6538P,0.78 µg/mL
COC(=O)N1CCN(c2ccc(N3C[C@H](COc4ccon4)OC3=O)cc2F)CC1,MIC,122 (novobiocin-resistant),4 µg/mL
CCCCCCCCCCCC[N+](C)(C)COCCCCCCCCC,MIC,ATCC33592,3.69 µM
NCCCCNc1cc2c(cc1F)c(=O)c(C(=O)O)cn2C1CC1,MIC,ATCC 6538P,>100 µg/mL
CCCCCCCCCCCC[N+](C)(C)CSCCCCCCCC,MBC,ATCC33592,24.4 µM
CCOC(CNc1cc2c(cc1F)c(=O)c(C(=O)O)cn2C1CC1)OCC,MIC,ATCC 6538P,>100 µg/mL
CCCCCCCCCCSC[N+](C)(C)CCCCCCCC,MIC,ATCC 6538,26.3 µM
CC[C@H]1OC(=O)[C@H](C)C(=O)[C@H](C)[C@@H](O[C@@H]2O[C@H](C)C[C@H](N(C)C)[C@H]2O)[C@](C)(OC)C[C@@H](C)C(=O)[C@H](C)[C@H]2N(CCCCn3cnc(-c4cccnc4)c3)C(=O)O[C@]12C,MIC,27660 (erythromycin-resistant),0.06 µg/mL
O=C(O)c1cn(C2CC2)c2cc(NCCCO)c(F)cc2c1=O,MIC,ATCC 5278 (methicillin-resistant),>100 µg/mL
Cc1c(N)c(F)cc2c(=O)c(C(=O)O)cn(-c3cc(N)c(F)cc3F)c12,MIC50,27 isolates,0.008 µg/mL
CC[C@H]1OC(=O)[C@H](C)C(=O)[C@H](C)[C@@H](O[C@@H]2O[C@H](C)C[C@H](N(C)C)[C@H]2O)[C@@]2(C)C[C@@H](C)C(=NC(C)=O)[C@H](C)C(OC/C(=N\OCc3ccccc3)CO2)[C@]1(C)O,MIC,25923 (erythromycin-susceptible),0.25 µg/mL
CCN(CC)CCN(CC)c1cc2c(cc1F)c(=O)c(C(=O)O)cn2C1CC1,MIC,ATCC 6538P,>100 µg/mL
Cc1c(NCCO)c(F)cc2c(=O)c(C(=O)O)cn(-c3cc(N)c(F)cc3F)c12,MIC90,27 isolates,0.03 µg/mL
CN(C)CCCNc1cc2c(cc1F)c(=O)c(C(=O)O)cn2C1CC1,MIC,ATCC 5278 (methicillin-resistant),>100 µg/mL
CS(=O)(=O)N[C@H]1CCN(c2ccc(N3C[C@H](COc4cnsn4)OC3=O)cc2F)C1,MIC,078 (oxford),0.25 µg/mL

A second listing of 3 rows from above:

CC[C@H]1OC(=O)[C@H](C)C(=O)[C@H](C)[C@@H](O[C@@H]2O[C@H](C)C[C@H](N(C)C)[C@H]2O)[C@@]2(C)C[C@@H](C)C(=NC(C)=O)[C@H](C)C(OC/C(=N\OCc3ccccc3)CO2)[C@]1(C)O ; endpoint: MIC ; strain: 25923 (erythromycin-susceptible) ; value: 0.25 µg/mL
Cc1c(N)c(F)cc2c(=O)c(C(=O)O)cn(-c3cc(N)c(F)cc3F)c12 ; endpoint: MIC50 ; strain: 27 isolates ; value: 0.008 µg/mL
NCCCCNc1cc2c(cc1F)c(=O)c(C(=O)O)cn2C1CC1 ; endpoint: MIC ; strain: ATCC 6538P ; value: >100 µg/mL